Anti-infective test results gathered from many reports (values: NIAID ChemDB through PubChem).

Shared fields: toxicity to cultured cells; cells: MT-2; read by: XTT; endpoint: CC50

CCn is the concentration with n% toxicity to the cells.

smiles	result
O=C(C(=O)N1CCN(C(=O)c2ccc(O)cc2)CC1)c1c[nH]c2ccccc12	>10 µM
CN(C)C(=O)[C@H]1CC=CN1S(=O)(=O)NC(=O)N[C@@H](Cc1cc(F)cc(F)c1)C(=O)N(C)c1ccc2scnc2c1	>100 µM
O=C(CSc1nc2ccc(NC(=O)c3ccccc3C(=O)O)cc2s1)NCc1ccccc1	>100 µM
COc1ccc(N(C)C(=O)[C@H](Cc2cc(F)cc(F)c2)NC(=O)NS(=O)(=O)N2C=CC[C@@H]2C(=O)N(C)C)cc1	>100 µM
O=C(O)c1cc(-n2cccc2)ccc1Cl	335.7 µM
O=C(C(=O)N1CCN(C(=O)c2ccccc2)CC1)c1c[nH]c2cccc([N+](=O)[O-])c12	>10 µM
CC(C)c1ccccc1-c1ccc2c(=O)n(-c3ccc(Cl)c4c(NS(C)(=O)=O)nn(C)c34)c([C@H](Cc3cc(F)cc(F)c3)NC(=O)Cn3nc(C(F)F)c4c3C(F)(F)[C@@H]3C[C@H]43)nc2c1	>0.5 µM
Cn1nc(NS(C)(=O)=O)c2c(Cl)ccc(-n3c([C@H](Cc4cc(F)cc(F)c4)NC(=O)Cn4ccc(C5CC5)n4)nc4cc(-c5ccccc5F)ccc4c3=O)c21	>1 µM
C[C@@H](NC(=O)C(=O)Nc1ccc(Cl)cc1)[C@H](c1ccccc1)N1CCOCC1	>99.6 µM
Cn1nc(NS(C)(=O)=O)c2c(Cl)ccc(-n3c([C@H](Cc4cc(F)cc(F)c4)NC(=O)Cn4nc(C(F)F)c5c4C(F)(F)[C@@H]4C[C@H]54)nc4cc(-c5cnn(C(F)F)c5)ccc4c3=O)c21	>0.5 µM
O=C(Cn1nc(C(F)F)cc1C1CC1)N[C@@H](Cc1cc(F)cc(F)c1)c1nc2nc(-c3ncccn3)ccc2c(=O)n1-c1ccc(Cl)c2c(NS(=O)(=O)C3CC3)nn(CC(F)F)c12	>0.5 µM
Cn1nc(NS(C)(=O)=O)c2c(Cl)ccc(-n3c([C@H](Cc4cc(F)cc(F)c4)NC(=O)Cn4nc(C5CC5)c5c4C(F)(F)[C@@H]4C[C@H]54)nc4nc(OCCC(C)(F)F)ccc4c3=O)c21	>0.1 µM
CCOC(=O)c1cccc2c(C(=O)C(=O)N3CCN(C(=O)c4ccccc4)CC3)c[nH]c12	>10 µM
CC(C)(C#Cc1ccc2c(=O)n(-c3ccc(Cl)c4c(NS(=O)(=O)C5CC5)nn(CC(F)F)c34)c([C@H](Cc3cc(F)cc(F)c3)NC(=O)Cn3nc(C(F)F)c4c3C(F)(F)[C@@H]3C[C@H]43)nc2c1)S(C)(=O)=O	>0.5 µM
Cc1ccc(CN(Cc2cc3cc(C)ccc3[nH]c2=O)C(=O)c2ccco2)cc1	>65 µM
C#Cc1cc(C)c(Oc2ccc([N+](=O)[O-])c(Nc3ccc(C#N)cc3)n2)c(C)c1	>405 µM
CCOc1ccc2c(=O)n(-c3ccc(Cl)c4c(NS(C)(=O)=O)nn(C)c34)c(C(Cc3cc(F)cc(F)c3)NC(=O)Cn3nc(C(F)F)c4c3C(F)(F)C3CC43)nc2n1	>10 µM
CCOc1ccccc1N(CC(=O)Nc1ccc(S(=O)(=O)Nc2cccc(C(F)(F)F)c2)cc1)S(C)(=O)=O	14.46 µM
CN(C(=O)[C@H](Cc1cc(F)cc(F)c1)NC(=O)NS(=O)(=O)N1CCc2cccnc21)c1ccc(OC(F)(F)F)nc1	>100 µM
Cc1ccc(N2C(=O)/C(=C/c3ccc(-c4ccc(Cl)c(C(=O)O)c4)o3)SC2=S)c(C)c1	29.5 µM
CN(C(=O)[C@H](Cc1cc(F)cc(F)c1)NC(=O)NS(=O)(=O)N(C)c1ccccc1)c1ccc2scnc2c1	>100 µM
Cn1nc(NS(C)(=O)=O)c2c(Cl)ccc(-n3c([C@H](Cc4cc(F)cc(F)c4)NC(=O)Cn4nc(C(F)F)c5c4C(F)(F)[C@@H]4C[C@H]54)nc4nc(-c5nccc(C(F)F)n5)ccc4c3=O)c21	>0.5 µM
CC1CN(S(=O)(=O)NC(=O)N[C@@H](Cc2cc(F)cc(F)c2)C(=O)N(C)c2ccc3scnc3c2)c2ncccc21	>100 µM
Cn1nc(NS(C)(=O)=O)c2c(Cl)ccc(-n3c([C@H](Cc4cc(F)cc(F)c4)NC(=O)Cn4nc(C(F)F)c5c4C(F)(F)[C@@H]4C[C@H]54)nc4nc(OCc5ncccn5)ccc4c3=O)c21	>1 µM
COc1ccc(N(C)C(=O)[C@H](Cc2ccccc2)NC(=O)NS(=O)(=O)n2nc(CN)c3ccccc32)cc1	>100 µM
C=CCN(C(=O)[C@H](Cc1cc(F)cc(F)c1)NC(=O)c1ccccc1C(=O)N[C@@H](Cc1cc(F)cc(F)c1)C(=O)N(CC=C)c1ccc(OC)cc1)c1ccc(OC)cc1	100 µM
Cn1nc(NS(C)(=O)=O)c2c(Cl)ccc(-n3c(C(Cc4cc(F)cc(F)c4)NC(=O)Cn4nc(C(F)F)c5c4C(F)(F)[C@@H]4C[C@H]54)nccc3=O)c21	>1 µM
Cc1ccc(C)n1-c1ccc(C(=O)O)c(O)c1	2755 µM
Cn1nc(NS(C)(=O)=O)c2c(Cl)ccc(-n3c([C@@H](Cc4cc(F)cc(F)c4)NC(=O)Cn4nc(C(F)F)c5c4C(F)(F)[C@@H]4C[C@H]54)nccc3=O)c21	>1 µM
CN(C(=O)[C@H](Cc1cc(F)cc(F)c1)NC(=O)NS(=O)(=O)n1ccc2ccccc21)c1ccc2scnc2c1	>100 µM
O=C(C(=O)N1CCN(C(=O)c2cccc(Br)c2)CC1)c1c[nH]c2ccccc12	>10 µM
Cn1nc(NS(C)(=O)=O)c2c(Cl)ccc(-n3c([C@H](Cc4cc(F)cc(F)c4)NC(=O)Cn4nc(C(F)F)c5c4C(F)(F)[C@@H]4C[C@H]54)nc4cc(-c5ccccc5F)ccc4c3=O)c21	>1 µM
Cn1nc(NS(C)(=O)=O)c2c(Cl)ccc(-n3c([C@H](Cc4cc(F)cc(F)c4)NC(=O)Cn4nc(C5CC5)c5c4C(F)(F)[C@H]4C[C@@H]54)nc4nc(OCCC(F)(F)F)ccc4c3=O)c21	>0.1 µM
COc1ccc(N2C(=O)/C(=C/c3ccc(-c4ccc(Cl)c(C(=O)O)c4)o3)SC2=S)cc1	>339.2 µM
O=C(C(=O)N1CCN(C(=O)c2cccc(F)c2)CC1)c1c[nH]c2ccccc12	>10 µM
O=C(O)c1cc(-c2ccc(/C=C3\SC(=S)N(c4cccc([N+](=O)[O-])c4)C3=O)o2)ccc1Cl	>328 µM
COc1ccc2c(c1)[C@@H]1C[C@]1(C(=O)N1[C@@H]3CC[C@H]1CN(C)C3)Cn1c-2c(C2CCCCC2)c2ccc(C(=O)NS(=O)(=O)N(C)C)cc21	14 µM
O=C(NCc1cccnc1)C(=O)N/N=C\c1ccc(-c2cccc(Cl)c2)o1	54.24 µM
[O-][n+]1onc2ncnc(N3CC[N+]4(CC3)CC[N+]3(CCN(c5ncnc6no[n+]([O-])c56)CC3)CC4)c21	98.2 µM
Cc1c(C(=O)O)cccc1-c1ccc(/C=C2\SC(=S)N(c3cccc(C(F)(F)F)c3)C2=O)o1	24.5 µM
Cn1nc(NS(C)(=O)=O)c2c(Cl)ccc(-n3c([C@H](Cc4cc(F)cc(F)c4)NC(=O)Cn4nc(C(F)F)c5c4C(F)(F)[C@@H]4C[C@H]54)nc4nc(-c5cccnc5)ccc4c3=O)c21	>0.1 µM
Cc1nc2cc(N(C)C(=O)[C@H](Cc3cc(F)cc(F)c3)NC(=O)NS(=O)(=O)N[C@@H](Cc3cc(F)cc(F)c3)C(=O)N(C)c3ccc4sc(C)nc4c3F)ccc2s1	100 µM
O=C(C(=O)N1CCN(C(=O)c2ccccc2)CC1)c1c[nH]c2ccc(Br)cc12	>10 µM
CCc1ncc(N(C)C(=O)[C@H](Cc2cc(F)cc(F)c2)NC(=O)CN2c3ccccc3N(CC(=O)N[C@@H](Cc3cc(F)cc(F)c3)C(=O)N(C)c3cnc(CC)nc3)S2(=O)=O)cn1	38.7 µM
C=C(C)[C@@H]1CC[C@]2(CCNC(C)(C)CN3CCN(C)CC3)CC[C@]3(C)[C@H](CC[C@@H]4[C@@]5(C)CC[C@H](OC(=O)CC(C)(C)C(=O)O)C(C)(C)[C@@H]5CC[C@]43C)[C@@H]12	3.2 µM

4 of the rows above, restated:

smiles | result
COc1ccc(N(C)C(=O)[C@H](Cc2ccccc2)NC(=O)NS(=O)(=O)n2nc(CN)c3ccccc32)cc1 | >100 µM
O=C(Cn1nc(C(F)F)cc1C1CC1)N[C@@H](Cc1cc(F)cc(F)c1)c1nc2nc(-c3ncccn3)ccc2c(=O)n1-c1ccc(Cl)c2c(NS(=O)(=O)C3CC3)nn(CC(F)F)c12 | >0.5 µM
O=C(C(=O)N1CCN(C(=O)c2ccccc2)CC1)c1c[nH]c2ccc(Br)cc12 | >10 µM
Cc1nc2cc(N(C)C(=O)[C@H](Cc3cc(F)cc(F)c3)NC(=O)NS(=O)(=O)N[C@@H](Cc3cc(F)cc(F)c3)C(=O)N(C)c3ccc4sc(C)nc4c3F)ccc2s1 | 100 µM

Rows are shuffled and stem from different studies.